{"source": "patent US9629899B2", "about": "“Targeted cargo protein combination therapy” (priority 2008, dated 2017)", "key": {"[1]": {"conditions": "mice, i.v.; cited from earlier work"}, "[2]": {"tested_on": "clinical pancreatic cancer sample xenograft", "test": "Advanced orthotopic pancreatic cancer model from a clinical sample, survival", "format": "in vivo", "conditions": "clinical sample in SCID mice, treatment from day 31; gemcitabine 150 mg/kg i.p. twice a week; PRX321 100 ug/kg i.p. twice a day days 31-35; non-treatment 62 days"}, "Capan-1 cells": {"tested_on": "Capan-1 cells", "format": "cell-based, human", "conditions": "single agent"}, "PK-1 cell line": {"tested_on": "PK-1 cell line", "test": "Protein synthesis inhibition assay (cytotoxicity), PK-1", "format": "cell-based, human"}, "HS766T cells": {"tested_on": "HS766T cells", "test": "Protein synthesis inhibition assay (cytotoxicity), HS766T", "format": "cell-based, human", "conditions": "single agent"}, "ASPC-1 cell line": {"tested_on": "ASPC-1 cell line", "test": "Protein synthesis inhibition assay (cytotoxicity), ASPC-1", "format": "cell-based, human"}, "MIA-PaCa-2-GFP tumors [3]": {"tested_on": "MIA-PaCa-2-GFP tumors", "format": "in vivo, nude mice"}, "[4]": {"conditions": "phase 1 clinical trial, i.v. administration at 0.027 mg/m2; cited from earlier work"}, "HPAF-II cells": {"tested_on": "HPAF-II cells", "test": "Protein synthesis inhibition assay (cytotoxicity), HPAF-II", "format": "cell-based, human"}, "[5]": {"conditions": "mice receiving optimal doses; data not shown"}, "MIA-PaCa-2-GFP tumors [6]": {"tested_on": "MIA-PaCa-2-GFP tumors", "test": "Advanced metastatic pancreatic tumor model, orthotopic MIA-PaCa-2-GFP, whole-body imaging and survival", "format": "in vivo, nude mice"}, "[7]": {"tested_on": "pancreatic cancer cell lines", "test": "Protein synthesis inhibition assay, panel of pancreatic cancer cell lines", "format": "cell-based, human", "conditions": "data not shown"}, "MIA-PaCa-2 cells": {"tested_on": "MIA-PaCa-2 cells", "format": "cell-based, human"}, "[8]": {"tested_on": "cancer cells expressing IL-4R cultured from clinical tumor sample", "test": "Cytotoxicity to tumor cells cultured from clinical PDA sample", "format": "cell-based, human", "conditions": "cancer cells expressing IL-4R cultured from clinical sample"}, "[9]": {"tested_on": "GFP transfected human pancreatic tumor cells (Hs766T)", "test": "Repetitive therapy of orthotopic human pancreatic cancer (Hs766T-GFP)", "format": "in vivo, nude mice"}, "Panc-1 cell line": {"tested_on": "Panc-1 cell line", "test": "Protein synthesis inhibition assay (cytotoxicity), Panc-1", "format": "cell-based, human"}, "[10]": {"conditions": "cynomolgus monkeys, i.v. every alternate day for three injections; cited from earlier work"}}, "note": "Read-outs that look alike come from different tables or passages of the source."}
{"substance": "IL4(38-37)-PE38KDEL [PRX321]", "values": [{"measurement": "Well tolerated dose", "setting": "[1]", "result": "up to 475 Ag/kg"}, {"measurement": "Median survival time", "setting": "[2]", "result": 102, "unit": "days"}, {"measurement": "IC75 (75% protein synthesis inhibition)", "setting": "Capan-1 cells", "result": 22, "unit": "ng/mL"}, {"measurement": "IC50 (50% protein synthesis inhibition)", "setting": "PK-1 cell line", "result": "≥ 1,000 ng/mL"}, {"measurement": "IC50 (50% protein synthesis inhibition)", "setting": "HS766T cells", "result": 13, "unit": "ng/mL"}, {"measurement": "IC50 (50% protein synthesis inhibition)", "setting": "ASPC-1 cell line", "result": "< 10", "unit": "ng/mL"}, {"measurement": "Organ toxicity in heart, liver, lung, kidney, and spleen by histologic examination", "setting": "MIA-PaCa-2-GFP tumors [3]; PRX321-injected mice", "result": "did not observe any organ toxicity"}, {"measurement": "Time after treatment for which rate of tumor growth (primary and metastasis lesions) was reduced", "setting": "MIA-PaCa-2-GFP tumors [3]; early model", "result": 15, "unit": "days"}, {"measurement": "Day by which tumor recurred", "setting": "MIA-PaCa-2-GFP tumors [3]; early model, mice without lesions on day 14", "result": "≤ 34", "unit": "days"}, {"measurement": "Tumor growth compared with non-treatment group (whole-body imaging)", "setting": "MIA-PaCa-2-GFP tumors [3]; early model, treatment from day 5, gemcitabine 150 mg/kg i.p. twice a week, PRX321 100 ug/kg i.p. twice a day for 5 days", "result": "reduction in the rate of tumor growth"}, {"measurement": "Median survival time", "setting": "MIA-PaCa-2-GFP tumors [3]; early model, non-treatment group 27 days", "result": 64, "unit": "days"}, {"measurement": "Adverse effects reported", "setting": "[4]", "result": "reversible elevation of liver enzymes and injection site inflammatory reactions"}, {"measurement": "IC50 (50% protein synthesis inhibition)", "setting": "HPAF-II cells", "result": "≥ 1,000 ng/mL"}, {"measurement": "Visible signs of toxicity (weight loss, inactivity)", "setting": "[5]", "result": "no visible signs of toxicity"}, {"measurement": "Time after treatment for which rate of tumor growth (primary and metastasis lesions) was reduced", "setting": "MIA-PaCa-2-GFP tumors [6]", "result": 9, "unit": "days"}, {"measurement": "Reduction in tumor size on day 28 compared with the no treatment group", "setting": "MIA-PaCa-2-GFP tumors [6]; day 28", "result": 71.2, "unit": "%"}, {"measurement": "Median survival time", "setting": "MIA-PaCa-2-GFP tumors [6]; non-treatment group 28 days", "result": 43, "unit": "days"}, {"measurement": "Tumor growth compared with non-treatment group (whole-body imaging)", "setting": "MIA-PaCa-2-GFP tumors [6]; treatment from day 15, gemcitabine 150 mg/kg i.p. twice a week, PRX321 100 ug/kg i.p. twice a day for 5 days", "result": "reduction in the rate of tumor growth"}, {"measurement": "Cytotoxic activity after incubation with an excess of IL-4", "setting": "[7]", "result": "neutralized"}, {"measurement": "IC50 of PRX321 with added gemcitabine", "setting": "MIA-PaCa-2 cells; adding 0.03 nmol/L gemcitabine", "result": 0.012, "unit": "ng/mL"}, {"measurement": "IC50 of PRX321 with added gemcitabine", "setting": "MIA-PaCa-2 cells; adding 0.3 nmol/L gemcitabine", "result": 0.001, "unit": "ng/mL"}, {"measurement": "IC50 (50% protein synthesis inhibition)", "setting": "MIA-PaCa-2 cells; single agent", "result": 0.08, "unit": "ng/mL"}, {"measurement": "IC75 (75% protein synthesis inhibition)", "setting": "MIA-PaCa-2 cells; single agent", "result": 0.32, "unit": "ng/mL"}, {"measurement": "IC50 (50% protein synthesis inhibition)", "setting": "MIA-PaCa-2 cells; single agent, listed as IL-4 cytotoxin", "result": 0.065, "unit": "ng/mL"}, {"measurement": "IC50", "setting": "[8]", "result": 0.32, "unit": "ng/mL"}, {"measurement": "Tumor volume compared to control", "setting": "[9]; 100 ug/kg/day i.p. for one week", "result": "significantly decreased the tumor volume"}, {"measurement": "Visible side effects", "setting": "[9]; repetitive therapy", "result": "did not observe any visible side effects"}, {"measurement": "Established pancreatic tumor growth", "setting": "[9]; repetitive therapy: 100 ug/kg/day i.p. every alternate week for 3 weeks", "result": "dramatic regression"}, {"measurement": "IC50 (50% protein synthesis inhibition)", "setting": "Panc-1 cell line", "result": "< 10", "unit": "ng/mL"}, {"measurement": "Reasonably tolerated dose", "setting": "[10]", "result": "≤ 200", "unit": "Ag/kg"}]}
